Laboratory results: US20250026814A1, “Polypeptides for detection and treatment of coronavirus infection” (published 2025)

What was measured:
[1] = target: Wildtype(WT)-2P spike FL trimer (SARS-CoV-2, UniProt P0DTC2 14-1213); experiment: BLI; 1:1 binding
[2] = target: Wildtype(WT)-6P spike FL trimer (SARS-CoV-2, UniProt P0DTC2 14-1213); experiment: BLI; 1:1 binding

B1: S728-1157 Fab (antibody, V domains shown)
VH: EVQLVESGGGLVQPGGSLRLSCAASGLLVSRNYMNWVRQAPGKGLEWVSIIYSGGSTFYADSVEGRFTISRDESKNTLYLQMNSLRTDDTAVYYCARDLSDYGGIDCWGQGTLVTVSS
VL: YELTQPLSVSMALGQTARISCGGDNVGSQNVHWYQQRPGQAPVLVIYRDSNRPSGIPERFSGSKSGNTATLTISRAQAGDEADYYCQVWDSSTVAFGGGTKLTVL
What does the source list for B1?
Kd [1]: 19.2 nM; Kd [2]: 5.7 nM
